Measured values from several laboratories, pooled; numbers as filed in NIAID ChemDB.

All rows: target-level tests

ICn is the concentration giving n% inhibition. a–b is a range or a potency band. Blank or dashed fields: not listed here. Inhibition is in % at the dose shown (toxicity tests: loss of growth or viability). Conditions beyond the fields shown may differ between rows.

smiles,measure,mutations,target,organism,method,dose,strain or isolate,result
CC(C)(CCCCNS(C)(=O)=O)CN(C[C@@H](O)[C@H](Cc1ccccc1)NC(=O)O[C@H]1CCOC1)S(=O)(=O)c1ccc2c(c1)OCO2,Ki,-,Protease,HIV-1,fluorescence,-,-,<0.001 µM
CC(C)(C#Cc1ccc(NC(=O)CSc2nnnn2-c2cc(C(C)(C)C)ccc2Cl)c(Cl)c1)NC(=O)CN1CCC(C(=O)O)CC1,IC50,RT-K103 Y181C,Reverse transcriptase,HIV-1,PicoGreen / fluorescence,-,-,<1 µM
CC(C)(CCCCNC(=O)OC1COCOC1)CN(C[C@@H](O)[C@H](Cc1ccccc1)NC(=O)O[C@H]1CO[C@H]2OCC[C@H]21)S(=O)(=O)c1ccc2c(c1)OCO2,Ki,-,Protease,HIV-1,fluorescence,-,-,<0.001 µM
CC(C)(C)c1ccc(-n2nccc2SCC(=O)Nc2ccc(-c3ccc(CC(=O)O)cc3)cc2Cl)c(Cl)c1,IC50,RT-K103 Y181C,Reverse transcriptase,HIV-1,PicoGreen / fluorescence,-,-,<1 µM
CC(C)(CCCOC(=O)N1CCCC1)CN(C[C@@H](O)[C@H](Cc1ccccc1)NC(=O)O[C@H]1CO[C@H]2OCC[C@H]21)S(=O)(=O)c1ccc2c(c1)OCO2,Ki,-,Protease,HIV-1,fluorescence,-,-,<0.001 µM
CC(C)(C#Cc1ccc(NC(=O)CSc2nnnn2-c2cc(C(C)(C)C)cc(Br)c2Cl)c(Cl)c1)C(=O)O,IC50,RT-K103 Y181C,Reverse transcriptase,HIV-1,PicoGreen / fluorescence,-,-,<1 µM
O=C(O)C1CN(Cc2ccc(Cl)c(Cl)c2)C(=O)c2c(O)c(=O)ccn21,IC50,-,Integrase,HIV-1,ELISA,-,-,0.01–0.1 µM
O=C(CSc1nnnn1-c1ccc(C2CC2)cc1Cl)Nc1ccc(C#CC2(CN3CCCC3)CC2)cc1Cl,IC50,-,Reverse transcriptase,HIV-1,PicoGreen / fluorescence,-,WT,<1 µM
CC(C)(CCNC(=O)NCc1ccccc1)CN(C[C@@H](O)[C@H](Cc1ccccc1)NC(=O)O[C@H]1CO[C@H]2OCC[C@H]21)S(=O)(=O)c1ccc2c(c1)OCO2,Ki,-,Protease,HIV-1,fluorescence,-,-,<0.001 µM
Nc1nc(N)c2c(n1)CCC(Cc1ccsc1)C2,IC50,-,Dihydrofolate reductase,Cryptosporidium parvum,-,-,TYPE 1,1 µM
O=C(Nc1cn2ccn(Cc3cccc(Cl)c3)c(=O)c2c(O)c1=O)c1cccnc1,IC50,-,Integrase,HIV-1,ELISA,-,-,<0.01 µM
CN(C)C(=NCCCCC(C)(C)CN(C[C@@H](O)[C@H](Cc1ccccc1)NC(=O)O[C@H]1CO[C@H]2OCC[C@H]21)S(=O)(=O)c1ccc2c(c1)OCO2)NC#N,Ki,-,Protease,HIV-1,fluorescence,-,-,<0.001 µM
CC(C)(C)c1ccc(-n2nnnc2SCC(=O)Nc2ccc(C(=O)NCCc3ccc(O)c(O)c3)cc2Cl)c(Cl)c1,IC50,RT-K103 Y181C,Reverse transcriptase,HIV-1,PicoGreen / fluorescence,-,-,<1 µM
CC(C)(CCCNS(C)(=O)=O)CN(C[C@@H](O)[C@H](Cc1ccccc1)NC(=O)O[C@H]1CO[C@H]2OCC[C@H]21)S(=O)(=O)c1cccc2c1OCCO2,Ki,-,Protease,HIV-1,fluorescence,-,-,<0.001 µM
CC(C)(C#Cc1ccc(NC(=O)CSc2nnnn2-c2ccc(C3CC3)cc2Cl)c(Cl)c1)NCc1cc[n+]([O-])cc1,IC50,RT-K103 Y181C,Reverse transcriptase,HIV-1,PicoGreen / fluorescence,-,-,<1 µM
CC(C)(C)CC(=O)NCCCC(C)(C)CN(C[C@@H](O)[C@H](Cc1ccccc1)NC(=O)O[C@H]1CO[C@H]2OCC[C@H]21)S(=O)(=O)c1ccc2c(c1)OCO2,Ki,-,Protease,HIV-1,fluorescence,-,-,<0.001 µM
CC(C)(C#Cc1ccc(NC(=O)CSc2nnnn2-c2cc(Cl)ccc2Cl)c(Cl)c1)C(=O)O,IC50,RT-K103 Y181C,Reverse transcriptase,HIV-1,PicoGreen / fluorescence,-,-,<1 µM
c1cncc(-c2cncc(N3CCN(c4ccncc4)CC3)n2)c1,IC50,-,UL97 kinase,Cytomegalovirus,-,-,-,<100 µM
COc1ccc(OC)c(-c2sc3nc(N)nc(N)c3c2C)c1,IC50,-,Dihydrofolate reductase,Cryptosporidium parvum,-,-,TYPE 2,2.6 µM
CN(C)C(=O)NCCCC(C)(C)CN(C[C@@H](O)[C@H](Cc1ccccc1)NC(=O)O[C@H]1CO[C@H]2OCC[C@H]21)S(=O)(=O)c1cccc(N)c1,Ki,-,Protease,HIV-1,fluorescence,-,-,<0.001 µM
CSc1ccc(-c2cncc(N3CCN(c4cccc(Cl)c4)CC3)n2)cc1,IC50,-,UL97 kinase,Cytomegalovirus,-,-,-,<10 µM
CCN(CC)C(=O)NCCCCC(C)(C)CN(C[C@@H](O)[C@H](Cc1ccccc1)NC(=O)O[C@H]1CO[C@H]2OCC[C@H]21)S(=O)(=O)c1ccc2c(c1)OCO2,Ki,-,Protease,HIV-1,fluorescence,-,-,<0.001 µM
CCc1cn(Cc2ccc(Cl)c(Cl)c2)c(=O)c2c(O)c(=O)ccn12,IC50,-,Integrase,HIV-1,ELISA,-,-,0.01–0.1 µM
Cc1cc(-n2nnnc2SCC(=O)Nc2ccc(C#CC(C)(C)O)cc2Cl)c(Cl)c(C(F)(F)F)c1,IC50,RT-K103 Y181C,Reverse transcriptase,HIV-1,PicoGreen / fluorescence,-,-,<1 µM
COc1ccc(S(=O)(=O)N(C[C@@H](O)[C@H](Cc2ccccc2)NC(=O)O[C@H]2CO[C@@H]3OCC[C@@H]32)CC(C)(C)CCC#N)cc1,Ki,-,Protease,HIV-1,fluorescence,-,-,0.001–0.01 µM
CC(C)(C#Cc1ccc(NC(=O)CSc2nnnn2-c2ccc(C3CC3)cc2Cl)c(Cl)c1)OCCN1CCC1,IC50,-,Reverse transcriptase,HIV-1,PicoGreen / fluorescence,-,WT,<1 µM
CC(=O)c1ccccc1-c1cncc(N2CCN(c3cccc(C(F)(F)F)c3)CC2)n1,IC50,-,UL97 kinase,Cytomegalovirus,-,-,-,<100 µM
CC(C)(CCCCOC(=O)NN)CN(C[C@@H](O)[C@H](Cc1ccccc1)NC(=O)O[C@H]1CO[C@H]2OCC[C@H]21)S(=O)(=O)c1ccc2c(c1)OCO2,Ki,-,Protease,HIV-1,fluorescence,-,-,<0.001 µM
Oc1cccc(-c2cncc(N3CCN(c4ccncc4)CC3)n2)c1,IC50,-,UL97 kinase,Cytomegalovirus,-,-,-,<10 µM
Nc1nc(N)c2c(ccc3ccc(Cl)cc32)n1,IC50,-,Dihydrofolate reductase,Cryptosporidium parvum,-,-,TYPE 2,0.023 µM
O=C1c2c(O)c(=O)ccn2C(CO)CN1Cc1ccc(Cl)c(Cl)c1,IC50,-,Integrase,HIV-1,ELISA,-,-,0.01–0.1 µM
CC(C)(C)c1ccc(-n2nnnc2SCC(=O)Nc2ccc(OCC(=O)Nc3cccc(C(=O)O)c3)cc2Cl)c(Cl)c1,IC50,RT-K103 Y181C,Reverse transcriptase,HIV-1,PicoGreen / fluorescence,-,-,<1 µM
O=c1c(-c2ccccc2)cn2ccn(Cc3cccc(Cl)c3)c(=O)c2c1O,IC50,-,Integrase,HIV-1,ELISA,-,-,<0.01 µM
CC(C)(C)c1ccc(-n2nnnc2SCC(=O)Nc2ccc(NC(=O)Cc3cccnc3)cc2Cl)c(Cl)c1,IC50,RT-K103 Y181C,Reverse transcriptase,HIV-1,PicoGreen / fluorescence,-,-,<1 µM
CCCCC1Cn2ccc(=O)c(O)c2C(=O)N1Cc1ccc(Cl)c(Cl)c1,IC50,-,Integrase,HIV-1,ELISA,-,-,0.01–0.1 µM
COC(=O)NCCCC(C)(C)CN(C[C@@H](O)[C@H](Cc1ccccc1)NC(=O)O[C@H]1CO[C@H]2OCC[C@H]21)S(=O)(=O)c1cccc2c1OCCO2,Ki,-,Protease,HIV-1,fluorescence,-,-,<0.001 µM
FC1(c2cncc(N3CCN(c4cnccn4)CC3)n2)C=CC(c2ccccc2)=CC1,IC50,-,UL97 kinase,Cytomegalovirus,-,-,-,<100 µM
CCCNC(=O)OCCCCC(C)(C)CN(C[C@@H](O)[C@H](Cc1ccccc1)NC(=O)O[C@H]1CO[C@H]2OCC[C@H]21)S(=O)(=O)c1ccc2c(c1)OCO2,Ki,-,Protease,HIV-1,fluorescence,-,-,<0.001 µM
CC(C)(C#Cc1ccc(NC(=O)CSc2nnnn2-c2ccc(C3CC3)cc2Cl)c(Cl)c1)OCCOc1ccncc1,IC50,-,Reverse transcriptase,HIV-1,PicoGreen / fluorescence,-,WT,<1 µM
c1ccc(-c2cncc(N3CCN(c4ccccn4)CC3)n2)cc1,inhibition,-,UL97 kinase,Cytomegalovirus,-,1 µM,-,<50%
CC(C)(CCNC(=O)C1CC1)CN(C[C@@H](O)[C@H](Cc1ccccc1)NC(=O)O[C@H]1CO[C@H]2OCC[C@H]21)S(=O)(=O)c1ccc2c(c1)OCO2,Ki,-,Protease,HIV-1,fluorescence,-,-,<0.001 µM
COc1ccc(CC2CCc3nc(N)nc(N)c3C2)cc1OC,IC50,-,Dihydrofolate reductase,Cryptosporidium parvum,-,-,TYPE 2,0.4 µM
CC(C)(C)c1ccc(-n2nnnc2SCC(=O)Nc2ccc(OCCN3CCCCC3)cc2Cl)c(Cl)c1,IC50,-,Reverse transcriptase,HIV-1,PicoGreen / fluorescence,-,WT,<1 µM
CCOC(=O)NCCC(C)(C)CN(C[C@@H](O)[C@H](Cc1ccccc1)NC(=O)O[C@H]1CO[C@H]2OCC[C@H]21)S(=O)(=O)c1ccc2c(c1)OCO2,Ki,-,Protease,HIV-1,fluorescence,-,-,<0.001 µM
O=c1ncn2ccn(Cc3cccc(Cl)c3)c(=O)c2c1O,IC50,-,Integrase,HIV-1,ELISA,-,-,0.01–0.1 µM
CC(C)(C#Cc1ccc(NC(=O)CSc2nnnn2-c2ccc(C3CC3)cc2Cl)c(Cl)c1)OCCN1CCS(=O)(=O)CC1,IC50,RT-K103 Y181C,Reverse transcriptase,HIV-1,PicoGreen / fluorescence,-,-,<1 µM
COc1ccc(N2CCN(c3cncc(-c4ccc(C(C)C)cc4)n3)CC2)cc1OC,IC50,-,UL97 kinase,Cytomegalovirus,-,-,-,<10 µM
Cc1ccc(-n2nncc2SCC(=O)Nc2ccc(-c3ccc(CC(=O)O)cc3)cc2Cl)c(Cl)c1,IC50,-,Reverse transcriptase,HIV-1,PicoGreen / fluorescence,-,WT,<1 µM
CCCNc1cncc(-c2ccc(C(N)=O)cc2)n1,IC50,-,UL97 kinase,Cytomegalovirus,-,-,-,<1 µM
CC(C)(C)c1ccc(-n2nnnc2SCC(=O)Nc2ccc(-c3ccc(OCC(=O)O)c(F)c3)cc2Cl)c(Cl)c1,IC50,-,Reverse transcriptase,HIV-1,PicoGreen / fluorescence,-,WT,<1 µM
O=C1c2c(O)c(=O)ccn2CCN1Cc1cccc(Cl)c1F,IC50,-,Integrase,HIV-1,ELISA,-,-,0.01–0.1 µM
CC(C)(C)c1ccc(-n2nnnc2SCC(=O)Nc2ccc(C(=O)Nc3ccncc3)cc2Cl)c(Cl)c1,IC50,-,Reverse transcriptase,HIV-1,PicoGreen / fluorescence,-,WT,<1 µM
COc1ccc(S(=O)(=O)N(C[C@@H](O)[C@H](Cc2ccccc2)NC(=O)O[C@H]2CCCO2)CC2(CCC#N)CCCC2)cc1,Ki,-,Protease,HIV-1,fluorescence,-,-,<0.001 µM
Cc1cc(C(F)(F)F)cc(-n2nnnc2SCC(=O)Nc2ccc(-c3ccc(CC(=O)O)cc3)cc2Cl)c1Cl,IC50,-,Reverse transcriptase,HIV-1,PicoGreen / fluorescence,-,WT,<1 µM
CC(C)SCc1cc(=O)c(O)c2n1CCN(Cc1ccc(Cl)c(Cl)c1)C2=O,IC50,-,Integrase,HIV-1,ELISA,-,-,0.01–0.1 µM
CC(=O)c1cccc(-c2cncc(N3CCN(c4ccc(F)cc4F)CC3)n2)c1,inhibition,-,UL97 kinase,Cytomegalovirus,-,10 µM,-,>15%
CC(C)(C)c1ccc(-n2nnnc2SCC(=O)Nc2ccc(C(=O)Nc3ccc(CC(=O)O)cc3)cc2Cl)c(Cl)c1,IC50,-,Reverse transcriptase,HIV-1,PicoGreen / fluorescence,-,WT,<1 µM

The first 6 rows once more:

smiles | measure | mutations | target | organism | method | dose | strain or isolate | result
CC(C)(CCCCNS(C)(=O)=O)CN(C[C@@H](O)[C@H](Cc1ccccc1)NC(=O)O[C@H]1CCOC1)S(=O)(=O)c1ccc2c(c1)OCO2 | Ki | - | Protease | HIV-1 | fluorescence | - | - | <0.001 µM
CC(C)(C#Cc1ccc(NC(=O)CSc2nnnn2-c2cc(C(C)(C)C)ccc2Cl)c(Cl)c1)NC(=O)CN1CCC(C(=O)O)CC1 | IC50 | RT-K103 Y181C | Reverse transcriptase | HIV-1 | PicoGreen / fluorescence | - | - | <1 µM
CC(C)(CCCCNC(=O)OC1COCOC1)CN(C[C@@H](O)[C@H](Cc1ccccc1)NC(=O)O[C@H]1CO[C@H]2OCC[C@H]21)S(=O)(=O)c1ccc2c(c1)OCO2 | Ki | - | Protease | HIV-1 | fluorescence | - | - | <0.001 µM
CC(C)(C)c1ccc(-n2nccc2SCC(=O)Nc2ccc(-c3ccc(CC(=O)O)cc3)cc2Cl)c(Cl)c1 | IC50 | RT-K103 Y181C | Reverse transcriptase | HIV-1 | PicoGreen / fluorescence | - | - | <1 µM
CC(C)(CCCOC(=O)N1CCCC1)CN(C[C@@H](O)[C@H](Cc1ccccc1)NC(=O)O[C@H]1CO[C@H]2OCC[C@H]21)S(=O)(=O)c1ccc2c(c1)OCO2 | Ki | - | Protease | HIV-1 | fluorescence | - | - | <0.001 µM
CC(C)(C#Cc1ccc(NC(=O)CSc2nnnn2-c2cc(C(C)(C)C)cc(Br)c2Cl)c(Cl)c1)C(=O)O | IC50 | RT-K103 Y181C | Reverse transcriptase | HIV-1 | PicoGreen / fluorescence | - | - | <1 µM